Experiments:
Type in all cases: cell-based
Details in all cases: Conc. 10 ppm, overnight in moist chamber
Alternaria solani = assay: Fungal spore control (spore slide-germination) against Alternaria solani
Monolinia fructicola = assay: Fungal spore control (spore slide-germination) against Monolinia fructicola
Botrytis cinerea = assay: Fungal spore control (spore slide-germination) against Botrytis cinerea

| Compound | % Control (percent inhibition of germination of fungus spores) (Alternaria solani) [%] | % Control (percent inhibition of germination of fungus spores) (Monolinia fructicola) [%] | % Control (percent inhibition of germination of fungus spores) (Botrytis cinerea) [%] |
| --- | --- | --- | --- |
| O=c1on(SC(Cl)(Cl)C(Cl)Cl)c(=O)n1C1CCCCC1 | 99 | 100 | 100 |
| CC(C)n1c(=O)on(SC(Cl)(Cl)C(Cl)Cl)c1=O | 99 | 10 | 100 |
